The source of these data is patent US20240287079A1, “6-AMINOPYRAZOLOPYRIMIDINE COMPOUND AND PHARMACEUTICAL USE THEREOF” (Japan Tobacco Inc., priority 2021, published 2024).

Amino acid sequences for entries named in this document (tags omitted).
UniProt Q96P20, whole entry: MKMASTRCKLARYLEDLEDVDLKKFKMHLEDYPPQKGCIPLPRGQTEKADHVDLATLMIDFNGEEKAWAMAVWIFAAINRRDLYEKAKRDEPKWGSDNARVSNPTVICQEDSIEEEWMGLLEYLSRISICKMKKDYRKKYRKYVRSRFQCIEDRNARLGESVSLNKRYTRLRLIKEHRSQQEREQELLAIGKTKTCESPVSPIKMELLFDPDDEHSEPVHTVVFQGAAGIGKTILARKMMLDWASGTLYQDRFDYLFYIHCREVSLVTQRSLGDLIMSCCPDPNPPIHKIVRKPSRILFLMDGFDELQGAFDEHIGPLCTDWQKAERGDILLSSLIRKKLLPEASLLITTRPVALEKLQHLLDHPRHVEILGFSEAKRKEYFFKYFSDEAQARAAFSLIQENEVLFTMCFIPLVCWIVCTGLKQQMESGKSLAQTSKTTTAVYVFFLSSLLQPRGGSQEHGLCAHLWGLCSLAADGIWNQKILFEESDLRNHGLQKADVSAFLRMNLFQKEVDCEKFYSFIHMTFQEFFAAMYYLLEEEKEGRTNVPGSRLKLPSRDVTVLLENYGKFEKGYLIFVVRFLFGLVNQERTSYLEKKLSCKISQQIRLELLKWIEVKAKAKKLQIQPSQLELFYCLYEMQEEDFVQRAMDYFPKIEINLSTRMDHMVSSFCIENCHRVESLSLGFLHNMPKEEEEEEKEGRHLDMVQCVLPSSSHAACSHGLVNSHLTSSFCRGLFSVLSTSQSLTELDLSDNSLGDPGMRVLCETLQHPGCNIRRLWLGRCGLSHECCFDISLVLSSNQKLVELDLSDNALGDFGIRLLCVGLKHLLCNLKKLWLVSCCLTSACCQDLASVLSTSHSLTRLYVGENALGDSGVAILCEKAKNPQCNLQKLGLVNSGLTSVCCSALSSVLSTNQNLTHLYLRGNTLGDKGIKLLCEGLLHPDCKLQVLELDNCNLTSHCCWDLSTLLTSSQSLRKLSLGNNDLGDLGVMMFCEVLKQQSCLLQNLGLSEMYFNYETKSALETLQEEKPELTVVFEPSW

Structures are written as SMILES.

In the experiment the target is NLRP3 inflammasome (Homo sapiens (Human), UniProt Q96P20). The experiment can be described thus: Evaluation of NLRP3 inflammasome inhibitory activity (inhibition of IL-1β production in LPS/Nigericin-stimulated THP1-Null cells). Type of experiment: cell-based. Conditions: IL-1β production in THP1-Null cells, PMA, LPS 1 μg/mL, Nigericin 7.5 μmol/L, AlphaLISA. How it is done:
The NLRP3 inflammasome inhibitory activity of test compounds were evaluated on the basis of the inhibitory activity of the IL-1β production in THP1-Null cells (Product Number: thp-null, InvivoGen). […] The supernatant of the culture was removed, and thereto was added media for assay (25 μL/well) containing 1 μg/mL Lipopolysaccharides (Product Number: L2654, Sigma-Aldrich (registered trademark)). […] The supernatant of the culture was removed. […] A solution containing a test compound (20 μL/well) was added to test compound-setting wells. […] The supernatant of the culture was cryonically stored (set at −20° C.) until measurement of IL-1β.
The amount of IL-1β in the culture supernatant was quantitated with AlphaLISA(registered trademark) Human IL-1β Detection Kit (Product Number: AL220C, Perkin Elmer). Fluorescence intensity was measured with a microplate reader EnSpier (Model number: 2300-00J, Perkin Elmer) or EnSight(Model number: HH34000000, Perkin Elmer) according to procedure manuals attached thereto. Inhibition rates of the test compound-setting wells were calculated on the basis of 100% for the blank-setting wells and 0% for the control-setting wells.
As to `Cc1cc(Br)cc(C)c1-n1cc2c(=O)[nH]c(N3CCOCC3)nc2n1` [Example 94, 2-(4-bromo-2,6-dimethylphenyl)-6-morpholino-2,5-dihydro-4H-pyrazolo[3,4-d]pyrimidin-4-one], the IC50 – broadly, the concentration needed to halve the response being measured – is 4.3 nM.

With `Cc1cc(Br)cc(C)c1-n1cc2c(=O)[nH]c(N3CCOCC3)nc2n1` [Example 334], inhibition was half-maximal at 8.2 nM (IC50). Next, `Cc1cc(Br)cc(C)c1-n1cc2c(=O)[nH]c(N3CCOCC3)nc2n1` [Example 335]: 9.8 nM.
